## Primary screen of a compound library

From ChEMBL document CHEMBL3988442, “University of Dundee, Small-Polar-MMV Screening Library” (2021).

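Whole-cell growth test on Mycobacterium tuberculosis, read after 4 days in a medium based on cholesterol and the lipid DPPC; the read-out is not stated. Concentration: 500 µM. Direction is inferred from retests: higher values go with more growth inhibition. About 18,000 compounds were tested under these conditions; 5% (about 900) showed 50% or more at least once.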

Values are the deposited “Percent Effect”, in %.
The controls that fix the scale are not given in the record; negative values are as filed.
The entries come from a sample that favours strong results.

| compound | effect |
|---|---|
| `C=C(C)CN1CCN(CC(=C)C)C(C(=O)N(C)C)C1` (centres undefined) | 0.6462% |
| `COCC(C)NC(=O)OCC(F)(F)F` (centres undefined) | -8.76% |
| `CCOC(=O)CSCC(=O)NC(=O)NCc1ccco1` | -15.2% |
| `OC1CCCN(Cc2cc(-c3ccco3)on2)C1` (centres undefined) | -11.21% |
| `Cc1noc(N)c1Cl` | 13.1% |
| `CS(=O)(=O)Nc1ccc(N2CCNCC2)cc1` | 24.42% |
| `CC(C)n1cc(C(=O)N2CC(c3ccccn3)C2)cn1` | 19.81% |
| `COc1ccccc1OCC(C)N` (centres undefined) | -9.596% |
| `O=C(NCCOc1ncccc1Cl)c1ccsc1` | 78.79% |
| `C[C@H](c1ccc(Cl)cc1)n1c(CCN)n[nH]c1=O` | 9.492% |
| `CCN1CCC(NC(=O)c2ccc(F)cc2F)CC1` | -12.73% |
| `CC1CCN(S(=O)(=O)N(C)CC(N)=O)CC1` | -16.81% |
| `CCN1CC(C(=O)NCCCc2cnn(C)c2)CC1=O` (centres undefined) | -4.797% |
| `CN(C)C(CN)C1CC1` (centres undefined) | -2.638% |
| `CCC[C@H]1CN(C(=O)CCn2cnnn2)C[C@@H]1N` | 11.16% |
| `CCOC(=O)N1CCN(Cc2nc(C3CC3)no2)CC1` | 88.9% |
| `Cc1cccc(NC(=O)C2CCNCC2)n1` | -4.093% |
| `COc1ccc(CCSc2nnc[nH]2)cc1` | 77.17% |
| `NCc1cccc(-c2nc(-c3ccncc3)no2)c1` | 71.74% |
| `COC1(c2noc(-c3ccco3)n2)CCOCC1` | 28.69% |
| `CCN1CCN(CCOc2ccc(C#N)cc2)CC1` | 3.632% |
| `O=C(NCCN1CCCC1)c1csc(-c2ccco2)n1` | 39.45% |
| `CCNC(=O)c1cc(N2CCCC(C)CC2)ccn1` (centres undefined) | 57.85% |
| `Cc1noc(C)c1CC(=O)N(C)C(C)c1ccncc1` (centres undefined) | -7.97% |
| `Cn1nnc(CNC(=O)C2CSc3ccccc3O2)n1` (centres undefined) | 27.28% |
| `Cc1cccc(CN(C)CC(=O)N(C)C)c1` | 3.805% |
| `CC(C)(N)CN1CCCN(c2ccc(F)cc2)CC1` | 66.46% |
| `CN(C)c1ccc(CNC(=O)C2CCCO2)cc1` (centres undefined) | 55.07% |
| `CC(=O)NCC(=O)Nc1ccc2cccc(Cl)c2n1` | -9.39% |
| `CCOC(=O)NCCC(=O)NCc1ccccn1` | -2.205% |
| `Cc1cccc(CNC(=O)NCCCC(N)=O)c1` | -18.86% |
| `COc1cccc(CN2CCC3(CC2)OCC(C)O3)c1` (centres undefined) | 57.39% |
| `Cc1nc(C)c(C(=O)N[C@@H]2CCNC[C@H]2O)s1` | -2.928% |
| `CCC(O)CN1CCCN(C2CCOCC2)CC1` (centres undefined) | 0.1248% |
| `COc1cccc(OC)c1CNC(C)=O` | 11.85% |
| `Cc1cccc(N2CCN(CCC(N)=O)CC2)c1` | 8.922% |
| `CCCn1nnc(NC(=O)COc2ccc(Cl)cc2)n1` | 110.9% |
| `O=S1(=O)CCNC(C2CCC2)C1` (centres undefined) | -33.51% |
| `NCC(=O)N1CCCC(CCc2ccc(F)cc2)C1` (centres undefined) | 76.62% |
| `OCCNCCNCc1ccc(-c2ccccc2F)o1` | 7.661% |
| `NCc1ccc2c(c1)CCS2(=O)=O` | 1.334% |
| `CC(C)c1nnc(NC(=O)N(C)C)s1` | 1.03% |
| `CNC(=O)C(C)S(=O)(=O)Cc1cc(C)ccc1C` (centres undefined) | -4.813% |
| `COc1ccc(CN2C[C@@H](O)[C@@H](O)C2)c(Br)c1OC` | 19.07% |
| `CCCNC(=O)Cn1cc(NC(=O)C(C)(C)C)cn1` | -11.16% |
| `N[C@H]1CN(C(=O)Cn2cccn2)C[C@@H]1C1CC1` | -19.57% |
| `CC[C@@H](CO)NCc1cnn(-c2ccc(F)cc2)c1` | 13.79% |
| `NC(=O)Nc1cccc(C(=O)Nc2ccc(Cl)cn2)c1` | 88.87% |
| `CN(C)CCNC(=O)c1ccc(Br)o1` | -11.97% |
| `CCN1CCCN(c2nc(C3CC3)no2)CC1` | -2.019% |
| `Brc1cncc(NCc2ncc[nH]2)c1` | 57.06% |
| `COC1(CN)CCOC1` (centres undefined) | 2.462% |
| `NC(=O)CSCC(=O)Nc1ccc(Cl)c(F)c1` | 24.16% |
| `Brc1cc2c(cc1CN1CCCNCC1)OCO2` | 64.29% |
| `Cc1cccc(CN(CC(N)=O)Cc2ccccn2)c1` | 31.37% |
| `O=C(Nc1cc[nH]n1)c1csc(I)c1` | 79.03% |
| `c1c[nH]c(CN2CCN(C3CCOCC3)CC2)n1` | 5.599% |
| `Cc1cnc(C(=O)N=c2sccn2C)cn1` | -1.867% |
| `CCN(CC1CCCCO1)C(=O)c1cc(Cl)c[nH]c1=O` (centres undefined) | -4.324% |
| `NCCCc1nc(-c2ccccn2)cs1` | 17.35% |
| `CC(CCN)N(C)Cc1ccccc1` (centres undefined) | -5.432% |
| `Cc1cc(S(=O)(=O)NCCN)ccc1F` | 14.03% |
| `Cc1cc(C(=O)N2CCCCC2)c2c(C)nn(C)c2n1` | -23.58% |
| `Cc1cccc(CS(=O)(=O)NCC2(CO)CC2)c1` | -11.69% |
| `NC1CCCN(c2ccccc2F)C1=O` (centres undefined) | -0.9063% |
| `CCC(N)(CC)CNS(=O)(=O)c1cccc(C(C)=O)c1` | -11.02% |
| `COc1ccc(NC(C(N)=O)c2ccc(Br)cc2)cn1` (centres undefined) | 54.62% |
| `O=C(CCCc1ccccc1)NCc1ccccn1` | 65.17% |
| `CC(OCCCN)c1ccccc1` (centres undefined) | 17.13% |
| `CC(O)CN1CCN(C(=O)c2cc(Br)c[nH]2)CC1` (centres undefined) | 18.96% |
| `COc1ccccc1C1CCN(C(=O)CCCN)C1` (centres undefined) | 22.91% |
| `COc1ccc2c(c1)OCC(CNC(=O)CN(C)C)C2` (centres undefined) | 55.29% |
| `Cc1ccsc1CN(C)C(=O)c1ccc(=O)n(C)n1` | -1.34% |
| `COc1ccc(NC(=O)C(C)n2cccn2)cn1` (centres undefined) | -271.2% |
| `CCN(CC)S(=O)(=O)CCNC(=O)c1nccnc1N` | -0.8748% |
| `CNC(=O)CN1CCC(Oc2ccccc2)C1` (centres undefined) | 36.95% |
| `Cc1cc2cc(C(=O)N3CCS(=O)(=O)CC3)ccc2o1` | 8.919% |
| `CS(=O)(=O)Nc1ccccc1CNC(=O)c1ccoc1` | -0.866% |
| `C=C(C)CN1C(=O)Nc2ccccc2S1(=O)=O` | 69.59% |
| `CN(CC(=O)Nc1sccc1C(N)=O)Cc1ccco1` | 29.12% |
| `CCC1c2ccsc2CCN1C(C)=O` (centres undefined) | 23.81% |
| `CC(NC(=O)NCCc1ccccn1)c1nncn1C` (centres undefined) | -16.61% |
| `Cc1cc(C)c2nc(CN3CCC(N)C3)cc(O)c2c1` (centres undefined) | 7.955% |
| `Cc1nnc(SCC(N)=O)[nH]1` | -7.05% |
| `NC1CCN(CC2CCCC2)CC1` | 32.28% |
| `COCCNCCNC(=O)c1ccc(C#N)cc1` | -3.841% |

5 of the entries, repeated:

compound,effect
Cc1cccc(N2CCN(CCC(N)=O)CC2)c1,8.922%
COCC(C)NC(=O)OCC(F)(F)F (centres undefined),-8.76%
Cc1cnc(C(=O)N=c2sccn2C)cn1,-1.867%
CCCn1nnc(NC(=O)COc2ccc(Cl)cc2)n1,110.9%
CCC[C@H]1CN(C(=O)CCn2cnnn2)C[C@@H]1N,11.16%